Results of unrelated studies side by side (data: NIAID ChemDB).

Shared fields: tests in culture; species: Mycobacterium tuberculosis

Rows are shuffled and stem from different studies. Blank or dashed fields: not listed here. A number after MIC or MFC names an inhibition level or a share of isolates. MIC bound comes from a single tested concentration. ECn: concentration that inhibits the pathogen or its effect by n%. Percent inhibition refers to the dose given; in toxicity tests it is the harm to the cells.

compound | endpoint | strain | dose | method | result
CC1=CC(=O)c2c(ccc(C3=C(C)C(=O)c4cccc(O)c4C3=O)c2O)C1=O | MIC | CIBIN 99 (MDR-MTB) | - | resazurin | 50 µg/mL
Cc1nc2nc(C)n(CCN3CCOCC3)c(=O)c2c(-c2cccc([N+](=O)[O-])c2)c1C(=O)CCCCCCCCCCN1CCC(c2ccccc2)(c2ccccc2)CC1 | MIC bound | H37Rv | - | resazurin | <6.25 µg/mL
N#Cc1ccn2c(-c3ccccc3)c(-c3ccccc3)c(C(O)c3ccccc3)c2c1 | EC50 | H37Rv | - | - | <6.25 µg/mL
CC[C@H]1OC(=O)[C@H](C)[C@@H](O[C@H]2C[C@@](C)(OC)[C@@H](O)[C@H](C)O2)[C@H](C)[C@@H](O[C@@H]2O[C@H](C)C[C@H](N(C)C)[C@H]2O)[C@](C)(O)C[C@@H](C)/C(=N\OCOCCOC)[C@H](C)[C@@H](O)[C@]1(C)O | MIC50 | 188 strains | - | - | 1 µg/mL
CC(=O)c1c(C)[nH]c(C(=O)N/N=C/c2cccc([N+](=O)[O-])c2)c1C | inhibition | H37Rv | 6.25 µg/mL | resazurin | 21%
Cc1cc(C2=NNC(c3ccc(N(C)C)cc3)C2)ccc1O | inhibition | H37Rv | 6.25 µg/mL | - | 92%
C(=C\c1ncnc2c1ncn2Cc1ccccc1)/c1ccccc1 | EC50 | H37Rv | - | BACTEC | <12.5 µg/mL
CC(C)=CCc1cc(/C=C/C(=O)c2ccc(O)c(CC=C(C)C)c2O)ccc1O | MIC | H37Rv | - | resazurin | 19.53 µg/mL
S=C(Nc1ccccc1)c1ccccn1 | inhibition | H37Rv | 6.25 µg/mL | resazurin | 96%
NC(=O)c1ncc(C(N)=S)nc1N1CCCCC1 | MIC | H37Rv | - | - | 100 µg/mL
CC1COc2c(N3CCN(C)CC3)c(F)cc3c(=O)c(C(=O)O)cn1c23 | MIC | H37Rv (S-MTB) | - | resazurin | 0.25 µg/mL
N#Cc1ccn2c(-c3ccccc3)c(-c3ccccc3)c(C(O)c3ccc(Cl)cc3)c2c1 | EC50 | H37Rv | - | - | <6.25 µg/mL
Clc1nc(-c2cccs2)c2ncn(Cc3ccccc3)c2n1 | EC50 | H37Rv | - | BACTEC | <12.5 µg/mL
O=c1[nH]c2c(Cl)cc(Cl)c(Cl)c2c2ccccc12 | inhibition | H37Rv | 6.25 µg/mL | BACTEC | 2%
Cc1cccc(N=Nc2c(O)c3cccc([N+](=O)[O-])c3[nH]c2=O)c1 | inhibition | H37Rv | 6.25 µg/mL | resazurin | 95%
O=C(NNC(=O)c1ccncc1)c1ccncc1 | MIC | H37Rv | - | BACTEC | 12.5 µg/mL
N#Cc1cnc(C(N)=O)c(NC2CCCCCC2)n1 | MIC | H37Rv | - | - | >100 µg/mL
Cc1c(CN2CCOCC2)c(CN2CCOCC2)c(-c2ccc(Cl)cc2)n1Cc1ccccc1 | MIC | H37Rv | - | - | <12.5 µg/mL
O=c1[nH]c2ccc(Cl)cc2c(O)c1N=Nc1ccc(Cl)cc1 | inhibition | H37Rv | 6.25 µg/mL | resazurin | 98%
O=C1C(=O)N(c2ccc(Cl)cc2)C(=O)C(=Nc2cccc3c(=O)[nH][nH]c(=O)c23)C1c1nc2ccccc2s1 | inhibition | - | 0.5 µM | BACTEC | 0%
CCn1cc(C(=O)N=Nc2c(O)n(-c3ccccc3)c3ccc(Br)cc23)c(=O)c2ccc(C)nc21 | MIC | - | - | - | 50 µg/mL
Clc1nc(/C=C/c2ccccc2)nc2c1ncn2Cc1ccccc1 | EC50 | H37Rv | - | BACTEC | <12.5 µg/mL
CN1CCN(c2cc3c(cc2F)c(=O)c(C(=O)O)cn3-c2ccc(F)cc2)CC1 | MIC | 10 strains | - | - | 1 µg/mL
COc1ccc(C(N)=S)cc1 | MIC | H37Rv (INH-resistant) | - | - | 32 µM
N#CC1=C(N)Oc2c(c(=O)oc3ccccc23)C1c1cc2ccccc2nc1Oc1ccc(Cl)cc1 | inhibition | H37Rv | 250 µg/mL | - | 32%
CC(C)C1=CC2(O)CCC3C(C)(C(=O)O)CCCC3(C)C2CC1=O | inhibition | H37Rv | 12.5 µg/mL | BACTEC | 0%
CO[C@H]1/C=C/O[C@@]2(C)Oc3c(C)c(O)c4c(O)c(c5c(c4c3C2=O)NC2(CCN(CC(C)C)CC2)N=5)=NC(=O)/C(C)=C\C=C\[C@H](C)[C@H](O)[C@@H](C)[C@@H](O)[C@@H](C)[C@H](OC(C)=O)[C@@H]1C | MIC | Strain 2 (INH-resistant) | - | - | 0.006 µg/mL
O=c1[nH]c2c([N+](=O)[O-])cccc2c(O)c1N=Nc1ccccc1[N+](=O)[O-] | MIC | H37Rv | - | resazurin | <6.25 µg/mL
CC(=O)Nc1ccc(C(N)=S)cc1 | MIC | H37Rv | - | - | 512 µM
NNC(=O)c1ccncc1 | MIC | Pan-susceptible clinical isolate 7 | - | - | 0.06 µg/mL
N[C@@H](Cc1ccc2oc3cc(=O)c4ccccc4c-3nc2c1)C(=O)O | inhibition | H37Rv | 12.5 µg/mL | BACTEC | 0%
O=C(N/N=C/c1cccc(C(F)(F)F)c1)c1ccncc1 | MIC | H37Rv (ciprofloxacin-resistant) | - | - | 3.9 µg/mL
O=C1CN(CCN2CCOCC2)CC(=O)N2CCCCN12 | MIC bound | H37Rv | - | BACTEC | >12.5 µg/mL
Cc1cc(C)c(C(N)=S)cn1 | MIC | H37Rv (INH-resistant) | - | - | 2048 µM
Cc1cc(C(=O)/C=C/c2ccccc2Cl)ccc1O | MIC | H37Rv | - | - | >6.25 µg/mL
NC(=S)c1ccc([N+](=O)[O-])cc1 | MIC | H37Rv (INH-resistant) | - | - | 1024 µM
Cc1c(CN2CCOCC2)cc(-c2ccc(Cl)cc2)n1C1CCCCC1 | EC50 | H37Rv | - | - | <12.5 µg/mL
NC(=S)c1ccc(Cl)cc1 | MIC | H37Rv (INH-resistant) | - | - | 512 µM
Cc1cc(C2=NNC(c3ccc(F)cc3)C2)ccc1O | MIC | H37Rv | - | - | >6.25 µg/mL
CC12C(=O)c3cccc(O)c3C(=O)C1CC13OC12C(=O)c1c(O)cccc1C3=O | MIC | CIBIN 99 (MDR-MTB) | - | resazurin | 12.5 µg/mL
CCNCC1CCN(c2c(F)cc3c(=O)c(C(=O)O)cn(CC)c3c2F)C1 | MIC | 10 strains | - | - | 1 µg/mL
Cc1c(-c2ccccc2)c(-c2ccccc2)n2ccc(C#N)cc12 | EC50 | H37Rv | - | - | >6.25 µg/mL
C/C=C/Nc1nc(C(N)=S)cnc1C(N)=O | MIC | H37Rv | - | - | 25 µg/mL
Cc1ccc(Oc2nc3ccc(C)cc3cc2C2C(C#N)=C(N)Oc3c2c(=O)oc2ccc(C)cc32)cc1 | inhibition | H37Rv | 250 µg/mL | - | 24%
N=C(N)c1ccc(-c2ccc(-c3ccc(C(=N)N)cc3)o2)cc1 | MIC bound | H37Rv | - | BACTEC | ≤12.5 µg/mL
CCOC(=O)NC(=O)c1ccsc1NC(=O)c1nc2ccccc2s1 | MIC99 | - | - | turbidity | 0.19 µg/mL
CC1COC(c2ccccn2)=N1 | inhibition | H37Rv | 12.5 µg/mL | BACTEC | 21%
Cc1ccc2oc(=O)c3c(c2c1)OC(N)=C(C#N)C3c1cc2ccccc2nc1Oc1ccccc1 | inhibition | H37Rv | 250 µg/mL | - | 91%
CC1=CC(=O)c2c(O)cccc2C1=O | MIC | H37Rv (S-MTB) | - | resazurin | 1.56 µg/mL
COc1ccc(C(C)NNC(=O)c2ccncc2)cc1OC | MIC | H37Rv | - | - | 12.5 µg/mL
COC(c1ccccc1)c1c(-c2ccccc2)c(-c2ccccc2)n2ccc(C#N)cc12 | EC50 | H37Rv | - | - | <6.25 µg/mL
CC1(C)CC(=O)C2=C(C1)Nn1c(nnc1C(F)(F)F)S2 | inhibition | H37Rv | 6.25 µg/mL | resazurin | 18%
CC1=C(O)c2cccc(O)c2C(=O)C1=O | MIC | CIBIN 99 (MDR-MTB) | - | resazurin | 25 µg/mL
CC(C)N=c1cc2n(-c3ccc(Cl)cc3)c3ccccc3nc-2cc1Nc1ccc(Cl)cc1 | MIC | H37Rv | - | resazurin / fluorescence | 0.5 µg/mL
C[n+]1c(-c2ccc(NC(=O)c3ccc(C(=O)Nc4ccc(-c5cn6ccccc6[n+]5C)cc4)cc3)cc2)cn2ccccc21 | inhibition | H37Rv | 12.5 µg/mL | BACTEC | 93%
Cc1ccc(Oc2nc3ccc(C)cc3cc2C2C(C#N)=C(N)Oc3c2c(=O)oc2ccccc32)cc1 | inhibition | H37Rv | 250 µg/mL | - | 74%
O=C(N/N=C/c1cccc(F)c1)c1ccncc1 | MIC | Rifampicin-resistant | - | - | ≤0.1 µg/mL
CC1COc2c(N3CCN(C)CC3)c(F)cc3c(=O)c(C(=O)O)cn1c23 | MIC | 10 strains | - | - | 1 µg/mL
Cc1c2c3c(c4ocnc14)[C@@H](C)CC[C@@H]3[C@@H](C)[C@@H]2/C=C/C(C)(C)O | MIC | H37Rv | - | - | 61 µg/mL
COC(=O)C1(C)CCc2c(OC)ccc(OC)c2C1=O | inhibition | H37Rv | 12.5 µg/mL | BACTEC | 0%
NC(=S)c1cccnc1 | MIC | H37Rv (INH-resistant) | - | - | 1024 µM
C=C(OCC)c1nc(/C=C/c2ccccc2)nc2c1ncn2Cc1ccccc1 | EC50 | H37Rv | - | BACTEC | >12.5 µg/mL
O=c1[nH]c2ccc(Cl)cc2c(O)c1N=Nc1ccccc1[N+](=O)[O-] | inhibition | H37Rv | 6.25 µg/mL | resazurin | 64%
O=C1C2Nc3ccccc3N=C2OC1c1cccc([N+](=O)[O-])c1 | inhibition | H37Rv | 12.5 µg/mL | BACTEC | -19%
NC(=S)c1ccccc1 | MIC | H37Rv (drug-susceptible) | - | - | 1024 µM
CC(=O)c1c(C)[nH]c(C(=O)N/N=C/c2ccc(C)cc2)c1C | inhibition | H37Rv | 6.25 µg/mL | resazurin | 92%
Cc1cc(C(=O)/C=C/c2cccc([N+](=O)[O-])c2)ccc1O | MIC | H37Rv | - | - | >6.25 µg/mL
O=C(ON(Cc1ccccc1)C(=O)C1C=CC=C1)C1=CCC=C1 | inhibition | H37Rv | 12.5 µg/mL | BACTEC | 50%
NNC(=O)c1ccncc1 | MIC | H37Rv (drug-susceptible) | - | - | 1 µM
c1ccc(Cn2cnc3c(-c4ccccc4)ncnc32)cc1 | EC50 | H37Rv | - | BACTEC | <12.5 µg/mL
O=C(N/N=C/c1ccccc1F)c1ccncc1 | MIC | H37Rv (thiacetazone-resistant) | - | - | >32 µg/mL
CC1(C)C=Cc2c(ccc(C(=O)/C=C/c3ccc(O)cc3)c2O)O1 | MIC | H37Rv | - | resazurin | 9.76 µg/mL
Cc1cc(C2=NNC(c3ccc(Cl)cc3)C2)ccc1O | MIC | H37Rv | - | - | >6.25 µg/mL
Clc1nc(C#Cc2ccccc2)nc2c1ncn2Cc1ccccc1 | EC50 | H37Rv | - | BACTEC | >12.5 µg/mL
C/C(=N\NC(=O)c1ccncc1)c1ccc(F)cc1 | MIC | Rifampicin-resistant | - | - | 0.2 µg/mL
CCn1cc(C(=O)N=Nc2c(O)[nH]c3ccc(Br)cc23)c(=O)c2ccc(C)nc21 | MIC | - | - | - | 200 µg/mL
Cc1ccc2oc(=O)c3c(c2c1)OC(N)=C(C#N)C3c1cc2ccccc2nc1Oc1ccc(Cl)cc1 | inhibition | H37Rv | 250 µg/mL | - | 23%
COc1ccc(/C=C/C(=O)c2ccc(O)c(C)c2)cc1OC | inhibition | H37Rv | 6.25 µg/mL | - | 92%
Nc1nc(-c2ccccc2)c2ncn(Cc3ccccc3)c2n1 | EC50 | H37Rv | - | BACTEC | >12.5 µg/mL
COc1ccc(/C=C2\N=C(c3ccccc3)OC2=O)c(OC)c1C | inhibition | H37Rv | 12.5 µg/mL | BACTEC | 98%
CCCNc1nc(C(N)=S)cnc1C(N)=O | MIC | H37Rv | - | - | 100 µg/mL
N#Cc1ccn2c(-c3ccccc3)c(-c3ccccc3)c(-c3ccccc3)c2c1 | EC50 | H37Rv | - | - | >6.25 µg/mL
Cc1c(CN2CCN(C)CC2)cc(-c2ccc(Cl)cc2)n1C1CCCCC1 | MIC | 103471 | - | - | 8 µg/mL
CCCCNc1nc(C(N)=S)cnc1C(N)=O | MIC | H37Rv | - | - | 25 µg/mL
Cc1cc(C2=NNC(c3cccc([N+](=O)[O-])c3)C2)ccc1O | inhibition | H37Rv | 6.25 µg/mL | - | 88%
O=C(/C=C/c1cccc(O)c1)/C=C/c1cccc(O)c1 | MIC bound | H37Rv | - | BACTEC | >12.5 µg/mL
CCn1cc(C(=O)N=Nc2c(O)n(CC)c3ccc(Br)cc23)c(=O)c2ccc(C)nc21 | MIC | - | - | - | 100 µg/mL
Nc1ccn([C@@H]2O[C@H](C(O[C@@H]3O[C@H](CO)[C@@H](O)[C@H](N)[C@H]3O)[C@@H](O)[C@@H](O)[C@@H](O)[C@@H](O)CO)[C@@H](N)[C@H](O)[C@H]2O)c(=O)n1 | MIC bound | H37Rv | - | BACTEC | >12.5 µg/mL
CCCCCCn1c(C)ccc1C | MIC | H37Rv | - | - | <12.5 µg/mL
CCc1c(C)[nH]c(-c2csc(N)n2)c1C.Cl | MIC bound | H37Rv | - | BACTEC | >12.5 µg/mL
O=[N+]([O-])c1ccc2nc(-c3ccccc3-c3nnc(-c4cccc(Cl)c4)o3)[nH]c2c1 | EC50 | H37Rv | - | - | <12.5 µg/mL

The last 7 rows once more:

compound,endpoint,strain,dose,method,result
Cc1cc(C2=NNC(c3cccc([N+](=O)[O-])c3)C2)ccc1O,inhibition,H37Rv,6.25 µg/mL,-,88%
O=C(/C=C/c1cccc(O)c1)/C=C/c1cccc(O)c1,MIC bound,H37Rv,-,BACTEC,>12.5 µg/mL
CCn1cc(C(=O)N=Nc2c(O)n(CC)c3ccc(Br)cc23)c(=O)c2ccc(C)nc21,MIC,-,-,-,100 µg/mL
Nc1ccn([C@@H]2O[C@H](C(O[C@@H]3O[C@H](CO)[C@@H](O)[C@H](N)[C@H]3O)[C@@H](O)[C@@H](O)[C@@H](O)[C@@H](O)CO)[C@@H](N)[C@H](O)[C@H]2O)c(=O)n1,MIC bound,H37Rv,-,BACTEC,>12.5 µg/mL
CCCCCCn1c(C)ccc1C,MIC,H37Rv,-,-,<12.5 µg/mL
CCc1c(C)[nH]c(-c2csc(N)n2)c1C.Cl,MIC bound,H37Rv,-,BACTEC,>12.5 µg/mL
O=[N+]([O-])c1ccc2nc(-c3ccccc3-c3nnc(-c4cccc(Cl)c4)o3)[nH]c2c1,EC50,H37Rv,-,-,<12.5 µg/mL